Pooled drug test results. Numbers come from NIAID ChemDB, via PubChem.

All rows: tests in culture; species: Mycobacterium tuberculosis

Percent inhibition refers to the dose given; in toxicity tests it is the harm to the cells. Lines come from different laboratories, so protocols vary. An empty or dashed field is not shown. ECn is the concentration giving n% inhibition of infection, replication or growth. MIC bound comes from a single tested concentration. A number after MIC or MFC names an inhibition level or a share of isolates.

compound,read by,strain or isolate,read-out,tested at,result
COc1ccc(/C=C/C(=O)Oc2ccc(/C=C3\CCCCC3=O)cc2)cc1,-,H37Rv,EC50,-,>12.5 µg/mL
N/C(=N\N=C\c1cccc(Br)c1)c1ccncc1,-,H37Rv,MIC,-,16 µg/mL
COc1cc2c3cc1Oc1c(OC)c(OC)cc4c1C(Cc1ccc(O)c(c1)Oc1ccc(cc1)CC3N(C)CC2)CN(C)C4,BACTEC,H37Rv,MIC bound,-,>12.5 µg/mL
Fc1ccc(CNCCc2c[nH]c3ccccc23)cc1F,-,H37Ra,MIC,-,32 µg/mL
CN(c1ccc(OC(F)(F)F)cc1)N1CCN(c2cc3c(cc2F)c(=O)c(C(=O)O)cn3C2CC2)CC1,fluorescence,H37Rv,MIC90,-,>50 µM
NNC(=O)c1ccncc1,-,BCG,MIC,-,0.06 µg/mL
Clc1cccc(CNCc2c[nH]c3ccccc23)c1,-,H37Ra,MIC,-,8 µg/mL
Cc1ccc(/C=C/C(=O)Oc2ccc(/C=C3\CCCC(CN(C)C)C3=O)cc2)cc1,-,H37Rv,EC50,-,<12.5 µg/mL
CC1OC(=O)c2ccc(O)cc21,-,H2,MIC,-,300 µg/mL
O=C(NN=C1CCCCC1)c1ccncc1,-,-,MIC90,-,2.67 µg/mL
N[C@@H]1CONC1=O,-,BCG,MBC,-,16 µg/mL
COc1cc2ccc(Br)cc2cc1[C@@H](c1cccc(C)c1)[C@](O)(CCN(C)C)c1cccc2ccccc12,resazurin,H37Rv,MIC,-,8 µg/mL
CCC(C(=O)NNC(=O)c1cc(OC)c(OC)c(OC)c1)c1ccccc1,resazurin,H37Rv,MIC bound,-,>6.25 µg/mL
CN(C)c1ccc(-n2c(=O)oc3c(Cl)cc(Cl)cc3c2=O)cc1,-,CNCTC MY331/88,MIC,-,>63.1 µM
NCC[C@H](O)C(=O)N[C@@H]1C[C@H](N)[C@@H](O[C@H]2O[C@H](CN)[C@@H](O)[C@H](O)[C@H]2O)[C@H](O)[C@H]1O[C@H]1O[C@H](CO)[C@@H](O)[C@H](N)[C@H]1O,-,-,MIC,-,0.5 µg/mL
CNC(C)C1CC[C@@H](N)[C@@H](O[C@H]2[C@H](O)[C@@H](OC3OC[C@](C)(O)[C@H](NC)[C@H]3O)[C@H](N)C[C@@H]2N)O1,resazurin,MC2 6020,MIC,-,4 µM
Clc1ccc(CNCc2c[nH]c3ccccc23)c(Cl)c1,-,H37Ra,MIC,-,32 µg/mL
O=C1O[C@H](c2ccc3c(c2)OCO3)C2C(=O)O[C@H](c3ccc4c(c3)OCO4)C12,BACTEC,H37Rv,MIC bound,-,>12.5 µg/mL
C=C(C)[C@H]1[C@@H]2C[C@H](C)[C@H]3CC[C@H](C)[C@@]4(O)C(=O)[C@]1(O)[C@@](C)(O)C(=O)[C@@]324,-,-,MIC,-,12.5 µg/mL
N#Cc1ccc(C(=O)NN2CCN(c3cc4c(cc3F)c(=O)c(C(=O)O)cn4C3CC3)CC2)cc1,fluorescence,H37Rv,MIC90,-,>50 µM
O=C(O)[C@H](O)[C@@H](O)[C@H](O[C@@H]1O[C@H](CO)[C@H](O)[C@H](O)[C@H]1O)[C@H](O)CO,-,H37Rv,inhibition,6.25 µg/mL,-11%
NNC(=O)c1ccncc1,broth dilution / agar / visual reading,H37Rv,MIC,-,1 µg/mL
COc1ccc2c3c1O[C@H]1C(Br)C=C[C@H]4[C@@H](C2)N(C)CC[C@]314,BACTEC,H37Rv,inhibition,12.5 µg/mL,4%
COc1cc2ccc(Br)cc2cc1[C@@H](c1ccc(Cl)cc1)[C@@](O)(CCN(C)C)c1ccccc1,resazurin,Clinical isolate,MIC,-,0.307 µg/mL
CC1(O)C2CCCCC2C2CCCCC2C1(C)O,resazurin,H37Rv,MIC bound,-,>6.25 µg/mL
O=C(O)c1cn(C2CC2)c2cc(N3CCN(/N=C/C4CCCCC4)CC3)c(F)cc2c1=O,fluorescence,H37Rv,MIC90,-,0.28 µM
COc1ccc2c(c1OC)CN(C)c1c-2ccc2cc3c(cc12)OCO3,broth dilution / turbidity,H37Ra ATCC 25177,MIC,-,>50 µg/mL
CC(C)=NNC(=O)c1ccncc1,-,-,MIC90,-,0.4 µg/mL
O=C(CCc1ccccc1)Oc1ccc(/C=C2\CCCCC2=O)cc1,-,H37Rv,EC50,-,>12.5 µg/mL
O=C(N/N=C/c1ccccc1)c1ccncc1,-,-,MIC90,-,0.4 µg/mL
Oc1ccc(CCN=C=S)cc1,visual reading,CDC1561,MIC,-,16 µg/mL
CC[C@H]1OC(=O)[C@H](C)[C@@H](O[C@H]2C[C@@](C)(OC)[C@@H](O)[C@H](C)O2)[C@H](C)[C@@H](O[C@@H]2O[C@H](C)C[C@H](N(C)C)[C@H]2O)[C@](C)(OC)C[C@@H](C)C(=O)[C@H](C)[C@@H](O)[C@]1(C)O,-,BCG,MBC,-,>0.5 µg/mL
NC(=O)Cn1c(=O)oc2cc(C(=O)CN3CCOCC3)ccc21,resazurin,H37Rv,MIC bound,-,>6.25 µg/mL
COc1cc2ccc(Br)cc2cc1[C@@H](c1ccccc1)[C@@](O)(CCN(C)C)c1ccc(Br)cc1,resazurin,Clinical isolate,MIC,-,0.331 µg/mL
O=C(/C=C/c1ccc(Br)cc1)Oc1ccc(/C=C2\CCCCC2=O)cc1,-,H37Rv,inhibition,12.5 µg/mL,3%
COc1ccc(Nc2c3sc4cc(OC)ccc4nc-3c3ccccc3c2=O)cc1,BACTEC,H37Rv,MIC bound,-,>12.5 µg/mL
COc1ccc(C(Nc2nc(-c3ccc(O)cc3)cs2)C2CCCCC2=O)cc1,broth dilution / agar / visual reading,H37Rv,MIC,-,50 µg/mL
Brc1ccc2c(ccc3c2nnc2ncnn23)c1,resazurin,H37Rv,inhibition,6.25 µg/mL,97%
COc1cc(/C=C/C2c3c(ccc(OC)c3OC)-c3ccc4cc5c(cc4c3N2C)OCO5)ccc1O,broth dilution / turbidity,H37Ra ATCC 25177,MIC,-,>50 µg/mL
Fc1cccc(F)c1CNCCc1c[nH]c2ccccc12,-,H37Ra,MIC,-,64 µg/mL
CC(C)=CCC[C@H](C)[C@H]1CC[C@H](C)c2cc(O)ccc21,-,-,MIC,-,6.25 µg/mL
COc1ccc2c(cnc3c4cc5c(cc4ccc23)OCO5)c1OC,broth dilution / turbidity,H37Rv (ATCC 27294),MIC,-,>50 µg/mL
CC1OC(=O)c2cc(O)ccc21,-,H37Rv,MIC,-,300 µg/mL
Clc1cccc(Cl)c1CNCCc1c[nH]c2ccccc12,-,H37Ra,MIC,-,32 µg/mL
C=C(C)[C@H]1[C@@H]2C[C@H](C)[C@H]3CC[C@H](C)[C@H]4C(=O)[C@]1(O)[C@@](C)(O)C(=O)[C@]342,-,-,MIC,-,6.25 µg/mL
COc1ccc2c(c1)n([O-])c1cc(C#N)ccc1[n+]2=O,-,H37Rv,MIC,-,<12.5 µg/mL
COc1ccc(C(=O)Oc2ccc(/C=C3\CCCCC3=O)cc2)cc1,-,H37Rv,inhibition,12.5 µg/mL,51%
COc1cc2ccc(Br)cc2cc1[C@@H](c1ccc(Cl)cc1)[C@@](O)(CCN(C)C)c1ccccc1Br,resazurin,Clinical isolate,MIC,-,0.096 µg/mL
COC1=C(Br)CC2(OC=C1Br)ON=C(C(=O)NCCCOc1c(Br)cc(CCN)cc1Br)[C@@H]2O,-,-,EC50,-,30 µM
O=C(O)c1cn(C2CC2)c2cc(N3CCN(/N=C/c4ccc(OC(F)(F)F)cc4)CC3)c(F)cc2c1=O,fluorescence,H37Rv,MIC90,-,3.4 µM
O=C(NN=C1CCCC1)c1ccncc1,-,-,MIC90,-,1.2 µg/mL
O=C(NN1CCN(c2cc3c(cc2F)c(=O)c(C(=O)O)cn3C2CC2)CC1)c1ccc(B(O)O)cc1,fluorescence,H37Rv,MIC90,-,5.58 µM
CCCCCCCC(=O)N1C2CC3CCC2(CS1(=O)=O)C3(C)C,BACTEC,H37Rv,inhibition,12.5 µg/mL,22%
O=CN(Cc1ccc(Cl)cc1)Cc1c[nH]c2ccccc12,-,H37Ra,MIC,-,32 µg/mL
Cc1cc(S(=O)(=O)Nc2nnc3c(Cl)cc(C(F)(F)F)cn23)c(S)cc1Cl,BACTEC,H37Rv,MIC bound,-,>12.5 µg/mL
C=C(COC(C)=O)C1Cc2cc(O)c(C(C)=O)cc2O1,-,H37Rv (ATCC 27294),MIC,-,64 µg/mL
CCOc1ccccc1-c1nc2c(s1)C(=O)c1ccccc1C2=O,BACTEC,H37Rv,inhibition,12.5 µg/mL,100%
Cc1ccc(-n2c(=O)oc3c(Cl)cc(Cl)cc3c2=O)cc1,-,CNCTC MY331/88,MIC,-,15.8 µM
O=C1CCCCC1C(Nc1nc(-c2ccc(O)cc2)cs1)c1cccc(Cl)c1,broth dilution / agar / visual reading,H37Rv,MIC,-,50 µg/mL
NNC(=O)c1ccncc1,-,PMH29:inhA,MIC,-,0.05 µg/mL
O=C1OCC(Cc2ccc3c(c2)OCO3)/C1=C\c1ccc2c(c1)OCO2,broth dilution / turbidity,H37Rv (ATCC 27294),MIC,-,>50 µg/mL
CN(C)c1ccc(C(Nc2nc(-c3ccc(O)cc3)cs2)C2CCCCC2=O)cc1,broth dilution / agar / visual reading,H37Rv,MIC,-,50 µg/mL
O=C(/C=C/c1ccc(F)cc1)Oc1ccc(/C=C2\CCCCC2=O)cc1,-,H37Rv,EC50,-,<12.5 µg/mL
COc1cccc2c1C(=O)c1c(O)c3c(c(O)c1C2=O)CC(O)(C(C)=O)CC3OC1CC(NCC2(O)OCC(O)C2O)C(O)C(C)O1,BACTEC,H37Rv,MIC bound,-,>12.5 µg/mL
N/C(=N\N=C\c1ccc(Cl)cc1)c1ccncc1,-,H37Rv,MIC,-,4 µg/mL
CN(C)c1nn2c(-c3ccccc3)nnc2s1,BACTEC,H37Rv,inhibition,12.5 µg/mL,-9%
Fc1ccc(CNCCc2c[nH]c3ccccc23)cc1,-,H37Ra,MIC,-,32 µg/mL
Cl.Cl.O=[N+]([O-])c1ccc(C(O)CN2CCN(CCO)CC2)cc1,BACTEC,H37Rv,MIC bound,-,>12.8 µg/mL
CC1OC(=O)c2cc([N+](=O)[O-])ccc21,-,H2,MIC,-,1000 µg/mL
CCn1cc(C(C[N+](=O)[O-])C[N+](=O)[O-])c2ccccc21,-,H37Ra,MIC,-,>128 µg/mL
C=C1C(O)CC2C(O)C3(C)CCC(C)(C)C3C12O,BACTEC,H37Rv,MIC bound,-,>12.5 µg/mL
O=c1c2ccccc2nc2n1CCc1c-2[nH]c2ccccc12,broth dilution / turbidity,H37Rv (ATCC 27294),MIC,-,>50 µg/mL
Clc1ccc(CNCc2c[nH]c3ccccc23)cc1Cl,-,H37Ra,MIC,-,16 µg/mL
CC1OC(=O)c2cccc(O)c21,-,H2,MIC,-,300 µg/mL
NC[C@H]1O[C@H](O[C@H]2[C@H](O)[C@@H](O[C@H]3O[C@H](CO)[C@@H](O)[C@H](N)[C@H]3O)[C@H](N)C[C@@H]2N)[C@H](O)[C@@H](O)[C@@H]1O,-,H37Rv,MIC,-,1 µg/mL
CN(C)c1ccc(-n2c(=O)oc3c(Br)cc(Br)cc3c2=O)cc1,-,CNCTC MY331/88,MIC,-,>126 µM
C/C=C/C/C=C/CCC(=O)[C@H]1O[C@H]1C(N)=O,-,Isolate H155,MIC,-,≤1.5 µg/mL
COc1ccccc1/C=N/N=C(\N)c1ccncc1,-,Isolate 1751 ofloxacin-resistant,MIC,-,64 µg/mL
COC(=O)/C=C/c1cc(OC)c2oc(-c3ccc4c(c3)OCO4)cc2c1,broth dilution / turbidity,H37Rv (ATCC 27294),MIC,-,>50 µg/mL
Cn1c(=O)c2ncnnc2n(C)c1=O,BACTEC,H37Rv,inhibition,12.5 µg/mL,0%
Cc1ccc(-n2c(=O)oc3c(Br)cc(Br)cc3c2=O)cc1,-,CNCTC MY331/88,MIC,-,31.6 µM
NCCCCC(C(=O)NC(Cc1ccc(O)cc1)C(=O)NN)N(C(=O)OCc1ccccc1)C(=O)OCc1ccccc1,BACTEC,H37Rv,MIC bound,-,>12.5 µg/mL
N/C(=N\N=C\c1ccccc1Br)c1ccncc1,-,Isolate 1751 ofloxacin-resistant,MIC,-,8 µg/mL
Cc1c(C(=O)CC(=O)C(=O)Nc2cc(Cl)ccc2Cl)[n+](=O)c2ccccc2n1[O-],BACTEC,H37Rv,MIC,-,≥12.5 µg/mL
CC(C)(C)C1CCC(=NNC(=O)c2ccncc2)CC1,-,EMB-resistant,MIC,-,0.1 µg/mL

Repeating the final 8 entries:

compound	read by	strain or isolate	read-out	tested at	result
COc1ccccc1/C=N/N=C(\N)c1ccncc1	-	Isolate 1751 ofloxacin-resistant	MIC	-	64 µg/mL
COC(=O)/C=C/c1cc(OC)c2oc(-c3ccc4c(c3)OCO4)cc2c1	broth dilution / turbidity	H37Rv (ATCC 27294)	MIC	-	>50 µg/mL
Cn1c(=O)c2ncnnc2n(C)c1=O	BACTEC	H37Rv	inhibition	12.5 µg/mL	0%
Cc1ccc(-n2c(=O)oc3c(Br)cc(Br)cc3c2=O)cc1	-	CNCTC MY331/88	MIC	-	31.6 µM
NCCCCC(C(=O)NC(Cc1ccc(O)cc1)C(=O)NN)N(C(=O)OCc1ccccc1)C(=O)OCc1ccccc1	BACTEC	H37Rv	MIC bound	-	>12.5 µg/mL
N/C(=N\N=C\c1ccccc1Br)c1ccncc1	-	Isolate 1751 ofloxacin-resistant	MIC	-	8 µg/mL
Cc1c(C(=O)CC(=O)C(=O)Nc2cc(Cl)ccc2Cl)[n+](=O)c2ccccc2n1[O-]	BACTEC	H37Rv	MIC	-	≥12.5 µg/mL
CC(C)(C)C1CCC(=NNC(=O)c2ccncc2)CC1	-	EMB-resistant	MIC	-	0.1 µg/mL